Measurements reported in PubChem BioAssay AID1259414 (Drosophila RNAi Screening Center, 2018)
Purpose: 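Host factors increasing or decreasing Wolbachia levels in cultured fly cells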 (primary screen). Cells: Drosophila JW18 cells infected with Wolbachia. Knock-down reagent: long dsRNA against Drosophila genes, 0.25 µg dsRNA per well of a 384-well plate. Timing: 5 days. Conditions: cells persistently infected with Wolbachia before knock-down; no added drug. Detection: 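Imaged fluorescence in situ signal for Wolbachia 23S rRNA per DAPI-counted host cell, given as a robust z-score within each plate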. Reading the numbers: Wolbachia per cell robust z: higher = more Wolbachia per host cell than the plate typical. Active means: 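Hit when robust z is 1.5 or more, or -1.5 or less, in at least two of three replicates; excludes dsRNAs with several or no targets, genes not expressed in JW18 and well A1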.
The screen tested about 24,000 reagents; shown is a random part of those that have a named target and a result. In the full data, about 1,210 (5%) got an active call. 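Inactive calls also include excluded dsRNAs with several or no targets, genes unexpressed in JW18, and well A1, regardless of score.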 The numbers tell different reagents against one gene apart. A plus sign joins genes that one reagent is predicted to hit.

Tl (Toll) #1 | Wolbachia per cell robust z, rep 1: 0.89; Wolbachia per cell robust z, rep 2: 0.804; Wolbachia per cell robust z, rep 3: 0.865; activity call: inactive
Tl (Toll) #2 | Wolbachia per cell robust z, rep 1: -0.924; Wolbachia per cell robust z, rep 2: -0.561; Wolbachia per cell robust z, rep 3: -0.454; activity call: inactive
CG5023 | Wolbachia per cell robust z, rep 1: -1; Wolbachia per cell robust z, rep 2: 0.0253; Wolbachia per cell robust z, rep 3: -1.66; activity call: inactive
Drsl1 (Drosomycin-like 1) | Wolbachia per cell robust z, rep 1: 0.897; Wolbachia per cell robust z, rep 2: -0.0862; Wolbachia per cell robust z, rep 3: 0.697; activity call: inactive
Gnpat (Glyceronephosphate O-acyltransferase) | Wolbachia per cell robust z, rep 1: -0.0684; Wolbachia per cell robust z, rep 2: 0.988; Wolbachia per cell robust z, rep 3: 0.731; activity call: inactive
peg (pegasus) #1 | Wolbachia per cell robust z, rep 1: -1.16; Wolbachia per cell robust z, rep 2: -0.534; Wolbachia per cell robust z, rep 3: -7.13; activity call: inactive
peg (pegasus) #2 | Wolbachia per cell robust z, rep 1: -3.04; Wolbachia per cell robust z, rep 2: -3.16; Wolbachia per cell robust z, rep 3: -1.41; activity call: active
CG1103 + Skp2 #1 | Wolbachia per cell robust z, rep 1: -2.21; Wolbachia per cell robust z, rep 2: 0.32; Wolbachia per cell robust z, rep 3: 1.18; activity call: inactive
CG1103 + Skp2 #2 | Wolbachia per cell robust z, rep 1: -0.533; Wolbachia per cell robust z, rep 2: -0.331; Wolbachia per cell robust z, rep 3: -0.419; activity call: inactive
CG1598 | Wolbachia per cell robust z, rep 1: -1.07; Wolbachia per cell robust z, rep 2: -1.01; Wolbachia per cell robust z, rep 3: -0.866; activity call: inactive
CG30154 #1 | Wolbachia per cell robust z, rep 1: 0.42; Wolbachia per cell robust z, rep 2: 0.749; Wolbachia per cell robust z, rep 3: 0.319; activity call: inactive
CG30154 #2 | Wolbachia per cell robust z, rep 1: -0.411; Wolbachia per cell robust z, rep 2: -0.631; Wolbachia per cell robust z, rep 3: -0.332; activity call: inactive
CG3847 #1 | Wolbachia per cell robust z, rep 1: -3.88; Wolbachia per cell robust z, rep 2: -1.1; Wolbachia per cell robust z, rep 3: -0.212; activity call: inactive
CG3847 #2 | Wolbachia per cell robust z, rep 1: 1.49; Wolbachia per cell robust z, rep 2: 1.44; Wolbachia per cell robust z, rep 3: 0.69; activity call: inactive
CG3847 #3 | Wolbachia per cell robust z, rep 1: -0.0939; Wolbachia per cell robust z, rep 2: -0.175; Wolbachia per cell robust z, rep 3: 0.686; activity call: inactive
Ssl1 (Suppressor of stem-loop mutation) | Wolbachia per cell robust z, rep 1: -2.67; Wolbachia per cell robust z, rep 2: -1.44; Wolbachia per cell robust z, rep 3: 0.299; activity call: inactive
ATPsyngamma (ATP synthase, gamma subunit) | Wolbachia per cell robust z, rep 1: -0.456; Wolbachia per cell robust z, rep 2: 1.36; Wolbachia per cell robust z, rep 3: 0.763; activity call: inactive
p38a (p38a MAP kinase) | Wolbachia per cell robust z, rep 1: -5.28; Wolbachia per cell robust z, rep 2: 0.661; Wolbachia per cell robust z, rep 3: -5.59; activity call: active
Rbm13 (RNA-binding motif protein 13) #1 | Wolbachia per cell robust z, rep 1: -5.93; Wolbachia per cell robust z, rep 2: 0.0668; Wolbachia per cell robust z, rep 3: 0.442; activity call: inactive
Rbm13 (RNA-binding motif protein 13) #2 | Wolbachia per cell robust z, rep 1: -8.62; Wolbachia per cell robust z, rep 2: -0.185; Wolbachia per cell robust z, rep 3: 0.381; activity call: inactive
fra (frazzled) | Wolbachia per cell robust z, rep 1: -0.208; Wolbachia per cell robust z, rep 2: -2.31; Wolbachia per cell robust z, rep 3: 0.159; activity call: inactive
Drsl4 (Drosomycin-like 4) #1 | Wolbachia per cell robust z, rep 1: 0.0265; Wolbachia per cell robust z, rep 2: -1.52; Wolbachia per cell robust z, rep 3: -0.294; activity call: inactive
Drsl4 (Drosomycin-like 4) #2 | Wolbachia per cell robust z, rep 1: 0.0909; Wolbachia per cell robust z, rep 2: -1.43; Wolbachia per cell robust z, rep 3: -0.587; activity call: inactive
COX7AL (Cytochrome c oxidase subunit 7A-like) #1 | Wolbachia per cell robust z, rep 1: 0.809; Wolbachia per cell robust z, rep 2: -0.429; Wolbachia per cell robust z, rep 3: 0.303; activity call: inactive
COX7AL (Cytochrome c oxidase subunit 7A-like) #2 | Wolbachia per cell robust z, rep 1: -2.18; Wolbachia per cell robust z, rep 2: -1.06; Wolbachia per cell robust z, rep 3: -0.822; activity call: inactive
CG32069 + Blos2 | Wolbachia per cell robust z, rep 1: 0.42; Wolbachia per cell robust z, rep 2: -8.19; Wolbachia per cell robust z, rep 3: -0.0258; activity call: inactive
CG4199 #1 | Wolbachia per cell robust z, rep 1: 0.435; Wolbachia per cell robust z, rep 2: 1.21; Wolbachia per cell robust z, rep 3: -2.91; activity call: inactive
CG4199 #2 | Wolbachia per cell robust z, rep 1: -0.116; Wolbachia per cell robust z, rep 2: -0.0568; Wolbachia per cell robust z, rep 3: 0.127; activity call: inactive
CG4199 #3 | Wolbachia per cell robust z, rep 1: -2.02; Wolbachia per cell robust z, rep 2: -1.46; Wolbachia per cell robust z, rep 3: -0.171; activity call: inactive
CG12213 #1 | Wolbachia per cell robust z, rep 1: -0.128; Wolbachia per cell robust z, rep 2: -0.764; Wolbachia per cell robust z, rep 3: 0.853; activity call: inactive
CG12213 #2 | Wolbachia per cell robust z, rep 1: 0.112; Wolbachia per cell robust z, rep 2: -1.75; Wolbachia per cell robust z, rep 3: -0.544; activity call: inactive
CG12213 #3 | Wolbachia per cell robust z, rep 1: -0.498; Wolbachia per cell robust z, rep 2: -7.64; Wolbachia per cell robust z, rep 3: -1.05; activity call: inactive

Records listed so far whose target name begins with T or t:
Tl (Toll) #1 | Wolbachia per cell robust z, rep 1: 0.89; Wolbachia per cell robust z, rep 2: 0.804; Wolbachia per cell robust z, rep 3: 0.865; activity call: inactive
Tl (Toll) #2 | Wolbachia per cell robust z, rep 1: -0.924; Wolbachia per cell robust z, rep 2: -0.561; Wolbachia per cell robust z, rep 3: -0.454; activity call: inactive
